# PubChem BioAssay AID504761, Drosophila RNAi Screening Center, 2011
# Assay: 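Genome-wide fly cell screen for genes dengue virus requires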 (primary screen)
# System: D.Mel-2 cells from Drosophila
# Reagent: long dsRNA against Drosophila genes
# Treatment: infection with dengue virus type 2; dose and infection time not stated
# Read-out: 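Cells stained for dengue envelope protein and imaged; percent of infected cells per well on duplicate plates, ranked by infection, with stained nuclei counted for cell number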
# Reading the numbers: infection score: higher = more virus-infected cells; cell count: higher = more cells in the well
# Call rule: 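Very low infection ranking in both replicate wells (chance probability at most 0.065), then a retest showing infection dropped 1.5-fold or more at p below 0.05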
# Calls: active = confirmed: knock-down lowers infection; inactive = not picked or not confirmed
# The screen tested about 22,000 reagents; below is an unselected part of those with a known target gene and a result. In the full data, 116 (0.52%) were called active. 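Calls depend on retest data that are not deposited; infection was ranked per plate without normalising between plates; the unit of the infection score is not given.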 Raw values vary from plate to plate and are shown uncorrected. A number with no mark means an inactive call. Reagents against one gene are numbered here. Names joined by + are all predicted targets of the reagent. Not all columns of the deposit are shown. No sequences are given here. The record does not give: the amount of reagent, the time to read-out.
predicted target,dsRNA no.,"infection score, replicate 1","infection score, replicate 2","cell count, replicate 1"
CG5255 (GeneID 42073),1,2.38,4.84,6836
CG5255 (GeneID 42073),2,2.41,1.01,6819
Tbc1d22 (GeneID 42498),1,2.7,2.07,5931
CG14669 (GeneID 40652),1,9.6,2.57,6500
CG14669 (GeneID 40652),2,10.3,9.91,6894
CG10553 (GeneID 43064),1,3.95,3.18,6665
CG12091 (GeneID 38177),1,6.51,4.58,5826
CG12091 (GeneID 38177),2,1.71,2.84,6780
Rhp (GeneID 32531),1,17.9,8.54,4802
Archease (GeneID 42551),1,6.96,1.52,6622
pHCl-1 (GeneID 39730),1,0.78,13.7,5755
pHCl-1 (GeneID 39730),2,0.62,2.88,5989
CG9287 (GeneID 34194),1,2.74,5.09,6346
CG9287 (GeneID 34194),2,1.86,0.71,5689
Pss (GeneID 40281),1,3.71,1.85,6627
Su(Tpl) (GeneID 40171),1,1.17 (active),3.2,6779
Su(Tpl) (GeneID 40171),2,2.58,4.09,6352
CG8834 (GeneID 36356),1,9.76,12.3,6785
CG7546 (GeneID 38844),1,4.95,3.27,5961
CG7546 (GeneID 38844),2,5.11,3.81,6579
CG7546 (GeneID 38844),3,5.26,18.9,6880
Ube3a (GeneID 39266),1,3.78,2.37,6675
CG14478 (GeneID 36964),1,10.1,19.3,5656

Next part; the last 6 above are carried over.
predicted target,dsRNA no.,"infection score, replicate 1","infection score, replicate 2","cell count, replicate 1"
CG8834 (GeneID 36356),1,9.76,12.3,6785
CG7546 (GeneID 38844),1,4.95,3.27,5961
CG7546 (GeneID 38844),2,5.11,3.81,6579
CG7546 (GeneID 38844),3,5.26,18.9,6880
Ube3a (GeneID 39266),1,3.78,2.37,6675
CG14478 (GeneID 36964),1,10.1,19.3,5656
cas (GeneID 44018),1,2.29,4.58,6190
cas (GeneID 44018),2,7.55,10.5,5895
beat-Ia (GeneID 34947),1,10.2,0.97,6013
beat-Ia (GeneID 34947),2,0.93,2.45,6440
Myo28B1 (GeneID 53515),1,5.92,0.62,6110
Myo28B1 (GeneID 53515),2,10.7,8.47,3226
Mps1 (GeneID 42126),1,17.9,19.1,3603
CG3739 (GeneID 42320),1,0.52,4.19,6563
CG9344 (GeneID 37372),1,8.5,8.09,6620
nAChRalpha7 (GeneID 32928),1,11.9,4.27,5710
nAChRalpha7 (GeneID 32928),2,5.36,3.8,5425
CAH1 + Adat1,1,26.4,29.4,2186
porin (GeneID 34500),1,27.2,8.25,5236
porin (GeneID 34500),2,9.07,27.2,6657
Hsp60D (GeneID 34763),1,2.99,2.85,6857
Hsp60D (GeneID 34763),2,18.4,21.1,1464
clumsy (GeneID 35394),1,,2.05,577
CG4404 (GeneID 32241),1,2.16,7.9,742
CG4404 (GeneID 32241),2,2.95,2.76,7024
CG1598 (GeneID 35690),1,8.89,0.56,7066
CG30416 (GeneID 246603),1,25.2,14.3,6261
Acsf3 (GeneID 31668),1,2.7,7.43,6344
BicC (GeneID 34946),1,12.3,1.6,5997
BicC (GeneID 34946),2,,,253
Atg9 (GeneID 36821),1,7.51,14.4,6355
dsh (GeneID 32078),1,11.4,3.08,6005
Mfap1 (GeneID 38256),1,15.2,25.1,2130
Mfap1 (GeneID 38256),2,21.6,0.29,3373
CG8160 (GeneID 36701),1,12.3,18.3,5948
CG8160 (GeneID 36701),2,5.51,10.3,6226
CG8160 (GeneID 36701),3,5.54,5.23,6284
CG30467 (GeneID 36719),1,5.24,11.8,6378
Chs2 (GeneID 40442),1,1.47,7.02,6807
Vha13 (GeneID 42341),1,8.07,2.37,5802
CG11122 (GeneID 32046),1,4.09,2.5,6306
CG11122 (GeneID 32046),2,8.18,2.47,5492
